Laboratory results taken from publication PMC13483431, “Structure and mechanism of the HSV-1 origin-binding protein UL9” (Journal of Virology, 2025).

Molecular target: T1, UL9CTD wild type (HSV-1) (UniProt P10193)
T1 sequence (looked up): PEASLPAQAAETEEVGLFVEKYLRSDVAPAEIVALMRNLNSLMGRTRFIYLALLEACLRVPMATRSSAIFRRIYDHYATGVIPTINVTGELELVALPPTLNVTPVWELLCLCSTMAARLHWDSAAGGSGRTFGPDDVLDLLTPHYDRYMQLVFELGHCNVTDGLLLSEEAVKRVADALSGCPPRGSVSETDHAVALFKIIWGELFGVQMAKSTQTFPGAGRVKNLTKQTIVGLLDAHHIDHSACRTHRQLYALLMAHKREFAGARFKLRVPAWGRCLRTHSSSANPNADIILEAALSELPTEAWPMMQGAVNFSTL
Assay: EMSA
Conditions: EMSA: 50 mM Tris pH 8.0, 50 mM NaCl, 1 mM DTT, 40 nM FAM-dsDNA, 0.5-3.5 uM protein, 4 C; recombinant protein; residues 536-851; protein details: N-terminal 8xHis

Does “GCGTTCGCACTTCGT (double strand) [15-bp oriS Box I dsDNA]” bind?
Result: binds

Construct, isoform or probe ends are uncertain for at least one entry. At least one verdict was read from the data and is not stated in words by the source. Tags and fusion partners may be left off the protein sequences shown.
